Results of unrelated studies side by side (data: NIAID ChemDB).

Common to all: tests in culture; organism: HIV-1; endpoint: EC50

Blank or dashed fields: not listed here. ECn is the concentration giving n% inhibition of infection, replication or growth. Neighbouring rows are from separate reports.

compound | strain | mutations | cell line | method | setting | value
Cc1ccc(NC(=O)CSc2nnc(C)n2-c2c(C)ccc3ccccc23)c(Cl)c1 | NL4-3 | RT-K103N Y181C | HeLa + HeLa-JC53 | luciferase |  | 0.06 µM
Cc1cn([C@H]2C[C@H](N=[N+]=[N-])[C@@H](CO)O2)c(=O)[nH]c1=O |  |  | PBM |  |  | 0.004 µM
CCc1ccc(-n2c(C)nnc2SCC(=O)Nc2ccccc2Br)c2ccccc12 | NL4-3 | RT-Y188L | HeLa + HeLa-JC53 | luciferase |  | 0.058 µM
CCOc1ccc(Cc2cc(C3CCN(C[C@H]4CN([C@@H](C(=O)O)C(C)C)C[C@@H]4c4cccc(F)c4)CC3)n(CC)n2)cc1 | BaL |  | HeLa | β-galactosidase | 50% human serum | <0.3 µM
COc1ccc(OC[C@H]2CN(C)CC[C@@H]2c2ccccc2)cc1 | IIIB |  | MOLT-3 | p24 |  | >4 µg/mL
CC(C)(C)NC(=O)[C@@H]1C[C@@H]2CCCC[C@@H]2CN1C[C@@H](O)[C@H](Cc1ccccc1)NC(=O)[C@H](CC(N)=O)NC(=O)c1ccc2ccccc2n1 | IIIB/LAI |  | HUT-78/IIIB/LAI + HUT 78 | p24 |  | 0.6 µM
Cc1c(C#N)cc(C(F)F)cc1Oc1c(C(F)(F)C(F)F)ncn(Cc2cc(F)c[nH]c2=O)c1=O |  | K103N |  | RT activity / fluorescence |  | 0.0251 µM
[N-]=[N+]=N[C@H]1C[C@H](n2ccc(=S)[nH]c2=O)O[C@@H]1CO | LAV-Bru |  | CEM-C113 + CEM/C113 | RT activity |  | 0.07 µM
Cc1cc(Cl)cc(S(=O)(=O)c2cccc(N)c2C#N)c1 |  | RT-K103N Y181C | HeLa + HELA CD4+ | β-galactosidase |  | >50 µM
O=c1[nH]c(=O)n([C@H]2O[C@@H](CO)C[C@H]2F)cc1I |  |  | PBM |  |  | >100 µM
Cc1cn([C@H]2CC[C@@H](CO)O2)c(=O)[nH]c1=O | AZT-resistant A012D Clinical isolate |  | HT4 + HT4-6C | plaque count |  | 290 µM
O=C(O)P(=O)(O)O | 7253 CLADE A CLADE A |  | PBMC | p24 |  | 16.1 µM
CCCN(C)C(=O)Oc1nsnc1-c1c(Cl)ccc(N)c1Cl | IIIB | RT-Y181C | MAGI | MTT |  | 1.6 µM
CCn1nc(Cc2ccc(OC3CCC3)cc2)cc1C1CCN(C[C@H]2CN([C@@H](C(=O)O)C(C)C)C[C@@H]2c2cccc(F)c2)CC1 | BaL |  | HeLa | β-galactosidase | 50% human serum | <0.1 µM
Cc1cc(C)c2ccccc2c1-n1c(C)nnc1SCC(=O)Nc1ccc(S(N)(=O)=O)cc1Cl | NL4-3 | RT-Y188L | HeLa + HeLa-JC53 | luciferase |  | 0.004 µM
Cc1cc(C#N)cc(C)c1Oc1nc(Nc2ccc(C#N)cc2)nc(N)c1Br | MJ4 C (N348I) |  | HEK293T | luciferase |  | 0.00205 µM
CCCCCCCCCCCCCC(=O)OC[C@H](COP(=O)(O)OP(=O)(O)OC[C@@H]1CC[C@H](n2cc(C)c(=O)[nH]c2=O)O1)OC(=O)CCCCCCCCCCCCC | AZT-resistant A012C Clinical isolate |  | HT4 + HT4-6C | plaque count |  | 14 µM
COc1cc(C(F)(F)F)cc(S(=O)(=O)c2cccc(N)c2C#N)c1 |  | RT-P236L | HeLa + HELA CD4+ | β-galactosidase |  | 0.008 µM
CONc1ccn([C@H]2C[C@H](N=[N+]=[N-])[C@@H](CO)O2)c(=O)n1 | LAV-Bru |  | CEM-C113 + CEM/C113 | RT activity |  | 177 µM
CN(C)CCC=C1c2ccccc2CCc2ccccc21 | IIIB |  | MOLT-3 | RT activity |  | >10 µg/mL
CCn1nc(Cc2ccc(Oc3ccccc3)cc2)cc1C1CCN(C[C@H]2CN([C@@H](C(=O)O)C3CCCCC3)C[C@@H]2c2cccc(F)c2)CC1 | BaL |  | HeLa | β-galactosidase |  | <0.0012 µM
Nc1nc(=O)n([C@H]2O[C@@H](CO)C[C@H]2F)cc1I |  |  | PBM |  |  | >100 µM
Cc1cn([C@H]2C[C@H](N=[N+]=[N-])[C@@H](CO)O2)c(=O)[nH]c1=O | CLADE D |  | PBL | p24 |  | 0.015 µM
C/C(=C(/CCO)SSCC1CCCO1)N(C=O)Cc1cnc(C)nc1N | IIIB |  | MOLT-4/HIV-1(IIIB) + MOLT-4 | p24 |  | >50 µM
O=C1N(Cc2ccc(CO)cc2)[C@H](Cc2ccccc2)[C@H](O)[C@@H](O)[C@@H](Cc2ccccc2)N1Cc1ccc(CO)cc1 | Clinical isolate X |  | PBMC | p24 |  | 0.09 µM
CCn1nc(Cc2cccc(C#N)c2)cc1C1CCN(C[C@H]2CN([C@@H](C(=O)O)C(C)C)C[C@@H]2c2cccc(F)c2)CC1 | BaL |  | HeLa | β-galactosidase |  | <0.0037 µM
Cc1cc(S(N)(=O)=O)ccc1NC(=O)COc1ccc(Cl)cc1C(=O)c1cc(Cl)cc(C#N)c1 | NNRTI-resistant (RT V108I Y181C) | RT-V108I Y181C | MAGI | β-galactosidase |  | 0.0009 µM
CCn1nc(Cc2cccnc2)cc1C1CCN(C[C@H]2CN([C@@H](C(=O)O)C(C)C)C[C@@H]2c2cccc(F)c2)CC1 | BaL |  | HeLa | β-galactosidase | 50% human serum | <0.3 µM
Cc1cn([C@H]2C[C@H](N=[N+]=[N-])[C@@H](CO)O2)c(=O)[nH]c1=O | NRTI resistant | RT-M41L K70R T215F K219E | HeLa | luciferase |  | 1.37 µM
Cc1cc(O)cc(S(=O)(=O)c2cccc(N)c2C#N)c1 |  | RT-P236L | HeLa + HELA CD4+ | β-galactosidase |  | 0.07 µM
Cc1ccnc2c1NC(=O)c1cccnc1N2C1CC1 | Clinical isolate | KM0148 | C8166 | ELISA |  | 0.135 µM
Cc1ccc2cc(Cl)cc(-n3c(C)nnc3SCC(=O)Nc3ccc(S(N)(=O)=O)cc3Cl)c2n1 | NL4-3 | RT-Y188L | HeLa + HeLa-JC53 | luciferase |  | 0.1 µM
O=c1ccn([C@@H]2O[C@H](CO)C[C@@H]2F)c(=O)[nH]1 |  |  | PBM |  |  | 155 µM
Cc1ccc(-n2c(C)nnc2SCC(=O)Nc2ccc(C#N)cc2Cl)cc1 | NL4-3 | RT-K103N Y181C | HeLa + HeLa-JC53 | luciferase |  | 0.9 µM
COc1ccc(OC[C@@H]2CNCC[C@H]2c2ccc(F)cc2)cc1 | IIIB |  | MOLT-3 | p24 |  | >4 µg/mL
CC[C@H](C)[C@H](C(=O)O)N1C[C@H](CN2CCC(c3cc(Cc4ccc5ccccc5c4)nn3CC)CC2)[C@@H](c2cccc(F)c2)C1 | BaL |  | HeLa | β-galactosidase | 50% human serum | <0.3 µM
COc1ccc(OC[C@H]2CNCC[C@@H]2c2ccc(F)cc2)cc1 | IIIB |  | MOLT-3 | p24 |  | >4 µg/mL
O=c1[nH]c(=O)n([C@@H]2O[C@@H](CO)C[C@H]2F)cc1Cl |  |  | PBM |  |  | >100 µM
OCCN1CCN(CC/C=C2/c3ccccc3Sc3ccc(C(F)(F)F)cc32)CC1 | IIIB |  | MOLT-3 | syncytia |  | >2 µg/mL
Cn1c2ccccc2c2c1cc(C#N)c(=O)n2-c1ccc([N+](=O)[O-])cc1 | NRTI resistant | RT-M41L D67N V118I M184V L210W T215Y | HeLa | luciferase |  | 0.119 µM
CCCCCN1CC[C@@H](c2ccc(F)cc2)[C@H](COc2ccc3c(c2)OCCO3)C1 | IIIB |  | MOLT-3 | syncytia |  | >4 µg/mL
Cc1cc(Br)cc(S(=O)(=O)c2cccc(N)c2C#N)c1 |  | RT-K103N V108I | HeLa + HELA CD4+ | β-galactosidase |  | 4.8 µM

Repeating the first 6 entries:

compound | strain | mutations | cell line | method | setting | value
Cc1ccc(NC(=O)CSc2nnc(C)n2-c2c(C)ccc3ccccc23)c(Cl)c1 | NL4-3 | RT-K103N Y181C | HeLa + HeLa-JC53 | luciferase |  | 0.06 µM
Cc1cn([C@H]2C[C@H](N=[N+]=[N-])[C@@H](CO)O2)c(=O)[nH]c1=O |  |  | PBM |  |  | 0.004 µM
CCc1ccc(-n2c(C)nnc2SCC(=O)Nc2ccccc2Br)c2ccccc12 | NL4-3 | RT-Y188L | HeLa + HeLa-JC53 | luciferase |  | 0.058 µM
CCOc1ccc(Cc2cc(C3CCN(C[C@H]4CN([C@@H](C(=O)O)C(C)C)C[C@@H]4c4cccc(F)c4)CC3)n(CC)n2)cc1 | BaL |  | HeLa | β-galactosidase | 50% human serum | <0.3 µM
COc1ccc(OC[C@H]2CN(C)CC[C@@H]2c2ccccc2)cc1 | IIIB |  | MOLT-3 | p24 |  | >4 µg/mL
CC(C)(C)NC(=O)[C@@H]1C[C@@H]2CCCC[C@@H]2CN1C[C@@H](O)[C@H](Cc1ccccc1)NC(=O)[C@H](CC(N)=O)NC(=O)c1ccc2ccccc2n1 | IIIB/LAI |  | HUT-78/IIIB/LAI + HUT 78 | p24 |  | 0.6 µM